Pooled drug test results. Numbers come from NIAID ChemDB, via PubChem.

Shared fields: tests in culture; species: Herpes simplex virus 1; method: plaque count; measure: EC50

Blank or dashed fields: not listed here. ECn is the concentration giving n% inhibition of infection, replication or growth. Lines come from different laboratories, so protocols vary.

| SMILES | strain or isolate | cells | value |
|---|---|---|---|
| O=c1[nH]c(=O)n([C@H]2C[C@H](O)[C@@H](CO)O2)cc1/C=C/Br | V3 | VERO | 0.23 µM |
| Cn1cc(C(=O)NCc2ccc(Cl)cc2)c(=O)c2cc(CN3CCOCC3)ccc21 | E-377 | HFF | 3.5 µM |
| Nc1nc2c(ncn2CCCCO)c(=O)[nH]1 | C42 | VERO | 3 µM |
| O=C(NCc1ccc(Cl)cc1)c1cn2c3c(cc(CN4CCOCC4)cc3c1=O)OC(c1cccnc1)C2 | PAA/R acyclovir-resistant | HFF | 0.9 µM |
| Nc1nc2c(ncn2CCCC(CO)CO)c(=O)[nH]1 | C42 | Primary mouse cells | 0.1 µM |
| O=C(NCc1ccc(Cl)cc1)c1c[nH]c2c(F)cccc2c1=O | DJL |  | 15 µM |
| Nc1nc2c(ncn2CC[C@H](O)CO)c(=O)[nH]1 | KJ502 | VERO | 12 µM |
| Nc1nc2c(ncn2COC(CO)CO)c(=O)[nH]1 | 25784 | VERO H | 0.45 µM |
| C=Cc1cn([C@H]2C[C@H](O)[C@@H](CO)O2)c(=O)[nH]c1=O | 77 | HELF | 0.08 µM |
| Nc1nc2c(ncn2C/C=C\CO)c(=O)[nH]1 | C42 (acyclovir-resistant) | VERO | 150 µM |
| Cc1cn([C@@H]2O[C@H](CO)[C@@H](O)[C@@H]2O)c(=O)[nH]c1=O | 77 | VERO | 4.2 µM |
| Cc1nc(N(C)C(=O)Cc2ccc(-c3ccccn3)cc2)sc1S(N)(=O)=O | KT1 | VERO | 0.03 µM |
| COCc1cn([C@H]2C[C@H](O)[C@@H](CO)O2)c(=O)[nH]c1=O | 76 | RK-13 | 7 µM |
| O=c1ccn([C@@H]2O[C@H](CO)[C@@H](O)[C@H]2O)c(=O)[nH]1 | 77 | VERO | >1000 µM |